Anti-infective test results gathered from many reports (values: NIAID ChemDB through PubChem).

Shared fields: growth or infection tests; species: Candida albicans; read-out: MFC

Blank or dashed fields: not listed here.

compound,strain or isolate,method,result
c1ccc(-c2ccc(C(c3ccccc3)n3ccnc3)cc2)cc1,ATCC 10231,,20 µg/mL
OC(Cn1cncn1)(Cn1cncn1)c1ccc(F)cc1F,2881,,>100 µg/mL
C[N+](C)(C)CCOP(=O)([O-])OCCCCCCCCCCCC1C2CC3CC(C2)CC1C3,ATCC 10231,broth dilution,8 µg/mL
C[C@@H]1O[C@@H](O[C@H]2[C@H](O[C@H]3CC[C@]4(C)[C@H]5CC=C6[C@@H]7CC(C)(C)CC[C@]7(C(=O)O)CC[C@@]6(C)[C@]5(C)CC[C@H]4C3(C)C)OC[C@H](O)[C@@H]2O)[C@H](O)[C@H](O)[C@H]1O,ATCC 90029,,>100 µg/mL
CCCCN(CCCCCCOP(=O)([O-])OCC[N+](C)(C)C)c1c([N+](=O)[O-])cc(C(F)(F)F)cc1[N+](=O)[O-],ATCC 10231,broth dilution,>16 µg/mL
CN(C)CCCSc1c2ccccc2nc2cccc([N+](=O)[O-])c12,CNCM 1180-79,,>500 µg/mL
Clc1ccc(COC(Cn2ccnc2)c2ccc(Cl)cc2Cl)c(Cl)c1,,,7 µM
Clc1ccc(CN(Cc2ccc(-c3ccccc3)cc2)n2ccnc2)cc1,,,200 µM
C[C@H]1[C@H](O)[C@@H](C)/C=C/C=C/C=C/C=C/C=C/C=C/C=C/[C@H](O[C@@H]2O[C@H](C)[C@@H](O)[C@H](N)[C@@H]2O)C[C@@H]2O[C@](O)(C[C@@H](O)C[C@@H](O)CC[C@H](O)[C@@H](O)C[C@@H](O)CC(=O)O[C@H]1C)C[C@H](O)[C@H]2C(=O)O,ATCC 10231,,5 µg/mL
Clc1ccc2c(c1)OCC(n1cnnc1)/C2=N\OCc1ccccc1,ATCC 10231,,>64 µg/mL
C[C@@H]1Oc2ccccc2/C(=N/OCc2ccc(Cl)cc2Cl)[C@H]1n1ccnc1,ATCC 10231,,>64 µg/mL
CCC(C)CC(C)CCCCCCCCC(=O)NC1CCCNC(=O)[C@@H]2[C@@H](O)[C@@H](C)CN2C(=O)[C@H]([C@H](O)CC(N)=O)NC(=O)[C@H](C(O)[C@H](O)c2ccc(O)cc2)NC(=O)[C@@H]2C[C@@H](O)CN2C(=O)[C@H]([C@@H](C)O)NC1=O,MY1750,,2 µg/mL
C[C@H]1[C@H](O)[C@@H](C)/C=C/C=C/C=C/C=C/C=C/C=C/C=C/[C@H](O[C@@H]2O[C@H](C)[C@@H](O)[C@H](N)[C@@H]2O)C[C@@H]2O[C@](O)(C[C@@H](O)C[C@@H](O)CC[C@H](O)[C@@H](O)C[C@@H](O)CC(=O)O[C@H]1C)C[C@H](O)[C@H]2C(=O)O,ATCC 90028,,5 µg/mL
CCC(C)CC(C)CCCCCCCCC(=O)N[C@H]1C[C@@H](O)[C@@H](O)NC(=O)[C@@H]2[C@@H](O)CCN2C(=O)[C@H]([C@H](O)CCNC)NC(=O)[C@H]([C@H](O)Cc2ccc(O)cc2)NC(=O)[C@@H]2C[C@@H](O)CN2C(=O)[C@H]([C@@H](C)O)NC1=O,MY1055,,2 µg/mL
CC(C)CC1NC(=O)CC(CCCCCCCCC(C)O)OC(=O)C(CC(C)C)NC(=O)C(CC(C)C)NC(=O)C(CC(C)C)NC(=O)C(C(C)C)NC(=O)C(CC(=O)O)NC(=O)C(CC(C)C)NC1=O,Clinical isolate,visual reading,2 µg/mL
COC1CC2CCC(C)C(O)(O2)C(=O)C(=O)N2CCCCC2C(=O)OC(C(C)CC2CCC(O)C(OC)C2)CC(=O)C(C)/C=C(\C)C(O)C(OC)C(=O)C(C)C[C@](C)(N(O)C(=O)NN2CCCCC2)/C=C/C=C/C=C/1C,RBP1/RBP1,,>100 µg/mL
N=C(N)c1ccc2nc(CCCc3nc4ccc(C(=N)N)cc4[nH]3)[nH]c2c1,A39,,>100 µg/mL
CC1(C)CC[C@]2(C(=O)O)CC[C@]3(C)C(=CC[C@@H]4[C@@]5(C)CC[C@H](OC6O[C@H](CO)[C@@H](O)[C@H](O)[C@H]6OC6O[C@H](CO)[C@@H](O)[C@H](O)[C@H]6O)C(C)(C)[C@@H]5CC[C@]43C)[C@@H]2C1,Y0109,,>100 µg/mL
CCC(C)CC(C)CCCCCCCCC(=O)NC1C[C@H](O)[C@@H](O)NC(=O)[C@@H]2[C@@H](O)[C@@H](C)CN2C(=O)[C@H]([C@H](O)CC(N)=O)NC(=O)[C@H](C(O)[C@H](O)c2ccc(O)cc2)NC(=O)[C@@H]2C[C@@H](O)CN2C(=O)[C@H]([C@@H](C)O)NC1=O,MY1208,,0.5 µg/mL
CC(=O)N1CCN(c2ccc(OC[C@H]3CO[C@](Cn4ccnc4)(c4ccc(Cl)cc4Cl)O3)cc2)CC1,ATCC 10231,,20 µg/mL
Clc1ccc(CO/N=C2\c3ccccc3OCC2n2cncn2)cc1Cl,ATCC 10231,,>64 µg/mL
C[C@@H]1O[C@@H](O[C@H]2[C@H](O)[C@@H](O)C(OC3[C@H](O[C@H]4CC[C@]5(C)[C@H]6CC=C7[C@@H]8CC(C)(C)CC[C@]8(C(=O)O)CC[C@@]7(C)[C@]6(C)CC[C@H]5C4(C)C)OC[C@H](O)[C@@H]3O)O[C@@H]2CO)[C@H](O)[C@H](O)[C@H]1O,ATCC 90029,,>100 µg/mL
CCn1nc(C)cc1-c1cc(C)on1,,,>200 µM
NC(=S)c1ccnc(SC2CCCCC2)c1,176,,200 µg/mL
Fc1ccc(CN(Cc2ccc(-c3ccccc3)cc2)n2ccnc2)cc1,,,200 µM
NCCc1ccc([N+](=O)[O-])c2c(=O)c3ccccc3[nH]c12,CNCM 1180-79,,>500 µg/mL
C[C@H]1[C@H](O)[C@@H](C)/C=C/C=C/C=C/C=C/C=C/C=C/C=C/[C@H](O[C@@H]2O[C@H](C)[C@@H](O)[C@H](N)[C@@H]2O)C[C@@H]2O[C@](O)(C[C@@H](O)C[C@@H](O)CC[C@H](O)[C@@H](O)C[C@@H](O)CC(=O)O[C@H]1C)C[C@H](O)[C@H]2C(=O)O,ATCC 10231,broth dilution / absorbance,78.1 µg/mL
CCCCN(CCCOP(=O)([O-])OCC[N+](C)(C)C)c1c([N+](=O)[O-])cc(C(F)(F)F)cc1[N+](=O)[O-],ATCC 10231,broth dilution,>16 µg/mL
CC1(C)CCC[C@]2(C)[C@@H](C=O)C(C=O)=CC[C@@H]12,ATCC 18804 and ATCC 28815 26555 24433 64544 64550,,1.56–3.13 µg/mL
CCCCCCCCCSc1cc(C(N)=S)ccn1,176,,>200 µg/mL
c1ccc(-c2csc(NN=C3CCCCCCC3)n2)cc1,,,6.25 µg/mL
Clc1ccc(CN(Cc2ccc(-c3ccccc3)cc2)n2ccnc2)c(Cl)c1,,,6.2 µM
Fc1ccc(C(CCn2ccnc2)Oc2ccc(Cl)cc2Cl)cc1,20 strains,,6.25 µg/mL
C[C@@H]1Oc2ccccc2/C(=N/OCc2c(Cl)cccc2Cl)[C@H]1n1ccnc1,ATCC 10231,,>64 µg/mL
Fc1ccc(CO/N=C2\c3ccccc3OCC2n2cncn2)cc1,ATCC 10231,,>64 µg/mL
CC1(C)CC[C@]2(C(=O)O)CC[C@]3(C)C(=CC[C@@H]4[C@@]5(C)CC[C@H](OC6O[C@H](CO)[C@@H](O)[C@H](O)[C@H]6OC6O[C@H](CO)[C@@H](O)[C@H](O)[C@H]6O)[C@@](C)(CO)[C@@H]5CC[C@]43C)[C@@H]2C1,Clinical isolates,,>100 µg/mL
Cc1ccc([C@@H](CCn2ccnc2)Oc2ccc(Cl)cc2Cl)cc1,20 strains,,7.12 µg/mL
CCN(CC)CCn1c2ccccc2c(=O)c2c([N+](=O)[O-])cccc21,CNCM 1180-79,,>1000 µg/mL
CCCn1nc(C)c(N=O)c1-c1cc(C)on1,,,7.4 µM
c1ccc(CO/N=C2\c3ccccc3OCC2n2cnnc2)cc1,ATCC 10231,,>64 µg/mL
Clc1ccc(C(Cn2ccnc2)OCc2csc3c(Cl)cccc23)c(Cl)c1,16 strains,,16 µg/mL
N=C(N)c1ccc(OCCCC(O)COc2ccc(C(=N)N)cc2)cc1,A39,,12.5 µg/mL
Fc1ccccc1CO/N=C1/c2ccccc2OCC1n1cncn1,ATCC 10231,,>64 µg/mL
C[C@@H]1Oc2ccccc2/C(=N/OCc2ccc(Cl)cc2)[C@H]1n1ccnc1,ATCC 10231,,16 µg/mL
CCC(C)CC(C)CCCCCCCCC(=O)N[C@H]1C[C@@H](O)[C@@H](O)NC(=O)[C@@H]2[C@@H](O)CCN2C(=O)[C@H]([C@H](O)CC#N)NC(=O)[C@H]([C@H](O)Cc2ccc(O)cc2)NC(=O)[C@@H]2C[C@@H](O)CN2C(=O)[C@H]([C@@H](C)O)NC1=O,MY1055,,2 µg/mL
C[C@@H]1Oc2ccccc2/C(=N/OCc2ccccc2)[C@H]1n1ccnc1,ATCC 10231,,64 µg/mL
NC=Nc1cccc(SCc2cc(Br)cc(Br)c2)c1,SC5314,,5 µM
COc1c(O)c2c(=O)cc(OC)c3c4c(OC)cc(=O)c5c(O)c(OC)c6c(c(c1CC(C)(O)C6C(C)=O)c23)c54,,,1.41 µg/mL
CCC(C)CC(C)CCCCCCCCC(=O)N[C@H]1C[C@H](O)[C@@H](O)NC(=O)[C@@H]2[C@@H](O)[C@@H](O)CN2C(=O)[C@H]([C@H](O)CC(N)=O)NC(=O)[C@H](C(O)[C@H](O)c2ccc(O)cc2)NC(=O)[C@@H]2C[C@@H](O)CN2C(=O)[C@H]([C@@H](C)O)NC1=O,MY1750,,1 µg/mL
N/C(=N/N=C1CCCCCC1)SCc1ccccc1Cl,,,>200 µg/mL
CCSc1c2ccccc2nc2cccc([N+](=O)[O-])c12,CNCM 1180-79,,>500 µg/mL
C[C@@H]1Oc2ccccc2/C(=N/OCc2ccc(Cl)cc2Cl)[C@H]1[n+]1cnc[nH]1,ATCC 10231,,>64 µg/mL
Cc1ccc(OC(CCn2ccnc2)c2ccccc2)cc1,20 strains,,13.6 µg/mL
Fc1ccc(CO/N=C2/c3ccccc3OCC2n2cncn2)cc1,ATCC 10231,,>64 µg/mL
N/C(=N/N=C1CCCCCCC1)SCc1ccccc1,,,>200 µg/mL
CCCCn1nc(-c2cc(C)on2)c(N=O)c1C,,,>200 µM
C[C@@H]1Oc2cc(Cl)ccc2/C(=N/OCc2ccc(Cl)cc2)[C@H]1n1ccnc1,ATCC 10231,,>64 µg/mL
Fc1ccc(CN(Cc2ccc(-c3ccccc3)cc2)n2ccnc2)c(F)c1,,,200 µM
C[C@@H]1Oc2cc(Cl)ccc2/C(=N/OCc2ccccc2)[C@H]1n1ccnc1,ATCC 10231,,>64 µg/mL
CN[C@H]1CC[C@@H](c2ccc(Cl)c(Cl)c2)c2ccccc21,SC5314,broth dilution,48 µg/mL
FC(F)(F)c1ccc(OC(CCn2ccnc2)c2ccccc2)cc1,20 strains,,76.8 µg/mL
COC1CC2CCC(C)C(O)(O2)C(O)C(O)N2CCCCC2C(=O)OC(C(C)CC2CCC(O)C(OC)C2)CC(=O)C(C)/C=C(\C)C(O)C(OC)C(=O)C(C)CC(C)/C=C/C=C/C=C/1C,RBP1/RBP1,,>100 µg/mL
Clc1cccc(Cl)c1CO/N=C1/c2ccccc2OCC1n1cncn1,ATCC 10231,,>64 µg/mL
CSc1cc(C(N)=S)ccn1,176,,>200 µg/mL
NC=Nc1ccc(SCc2cc(Br)cc(Br)c2)cc1,SC5314,,>100 µM
CC(C)N=C(N)c1ccc2nc(-c3ccc4c(c3)Cc3cc(-c5nc6ccc(C(N)=NC(C)C)cc6[nH]5)ccc3-4)[nH]c2c1,Isolate 2370 fluconazole-resistant,,1.56 µg/mL
CCCCCCCCSc1cc(C(N)=S)ccn1,176,,200 µg/mL

For reference, 6 entries again:

| compound | strain or isolate | method | result |
|---|---|---|---|
| CN[C@H]1CC[C@@H](c2ccc(Cl)c(Cl)c2)c2ccccc21 | SC5314 | broth dilution | 48 µg/mL |
| FC(F)(F)c1ccc(OC(CCn2ccnc2)c2ccccc2)cc1 | 20 strains |  | 76.8 µg/mL |
| CCCCCCCCSc1cc(C(N)=S)ccn1 | 176 |  | 200 µg/mL |
| CC(C)CC1NC(=O)CC(CCCCCCCCC(C)O)OC(=O)C(CC(C)C)NC(=O)C(CC(C)C)NC(=O)C(CC(C)C)NC(=O)C(C(C)C)NC(=O)C(CC(=O)O)NC(=O)C(CC(C)C)NC1=O | Clinical isolate | visual reading | 2 µg/mL |
| Clc1ccc(CN(Cc2ccc(-c3ccccc3)cc2)n2ccnc2)cc1 |  |  | 200 µM |
| CC(C)N=C(N)c1ccc2nc(-c3ccc4c(c3)Cc3cc(-c5nc6ccc(C(N)=NC(C)C)cc6[nH]5)ccc3-4)[nH]c2c1 | Isolate 2370 fluconazole-resistant |  | 1.56 µg/mL |

Neighbouring rows are from separate reports. Two numbers with a dash give a range or band.